Record: PubChem BioAssay AID1259414 (Drosophila RNAi Screening Center, 2018)

Screen: 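Fly genes that alter Wolbachia amount inside host cells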 (primary screen)
Cells: Drosophila JW18 cells infected with Wolbachia
Knock-down reagent: long dsRNA against Drosophila genes, 0.25 µg dsRNA per well of a 384-well plate
Timing: 5 days
Challenge: cells persistently infected with Wolbachia before knock-down; no added drug
Read-out: 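Automated imaging of bacterial rRNA staining divided by host cell count, reported as plate-normalised robust z-score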
Direction: Wolbachia per cell robust z: higher = more Wolbachia per host cell than the plate typical
Call rule: 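Active if absolute robust z reaches 1.5 in two or more of three replicates, leaving out multi- or no-target dsRNAs, genes unexpressed in JW18 and A1 wells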
The screen tested about 24,000 reagents; this is a random part of those that have a named target and a result. Over the whole deposit, about 1,210 (5%) are marked active. 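Inactive calls also include excluded dsRNAs with several or no targets, genes unexpressed in JW18, and well A1, regardless of score.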 A number with no mark means an inactive call. Reagents against one gene are numbered here.

The first 4 records, ahead of the listing:
| target gene | reagent no. | Wolbachia per cell robust z, rep 1 | Wolbachia per cell robust z, rep 2 | Wolbachia per cell robust z, rep 3 |
| --- | --- | --- | --- | --- |
| rdo (reduced ocelli) | 1 | 1.37 | 0.272 | -2.59 |
| rdo (reduced ocelli) | 2 | 0.97 | 1.15 | -0.445 |
| CG11279 | 1 | 0.555 | 0.79 | -0.262 |
| CG8738 | 1 | -0.716 | 1.4 | 1.33 |

The listing, repeating the preview:
| target gene | reagent no. | Wolbachia per cell robust z, rep 1 | Wolbachia per cell robust z, rep 2 | Wolbachia per cell robust z, rep 3 |
| --- | --- | --- | --- | --- |
| rdo (reduced ocelli) | 1 | 1.37 | 0.272 | -2.59 |
| rdo (reduced ocelli) | 2 | 0.97 | 1.15 | -0.445 |
| CG11279 | 1 | 0.555 | 0.79 | -0.262 |
| CG8738 | 1 | -0.716 | 1.4 | 1.33 |
| CG31637 | 1 | -0.364 | 0.874 | -1.04 |
| CG31637 | 2 | 1.74 (active) | 0.612 | 1.58 |
| CG31637 | 3 | 0.945 | 0.304 | 0.523 |
| CG11263 | 1 | 0.91 | 1.45 | 0.258 |
| CG18335 | 1 | -1.88 | -1.47 | -1.32 |
| CG18335 | 2 | 1.16 | 0.641 | -0.469 |
| IntS9 (Integrator 9) | 1 | 0.352 | -1.8 | -0.772 |
| IntS9 (Integrator 9) | 2 | 0.795 | 0.888 | 0.738 |
| CG18558 | 1 | 0.116 | -1.49 | -0.751 |
| CG14636 | 1 | -1.71 | 0.233 | -0.331 |
| CG14636 | 2 | 1.85 | -1.23 | -2.19 |
| tral (trailer hitch) | 1 | 0.626 | 1.1 | -0.778 |
| tral (trailer hitch) | 2 | -0.591 | -3.23 | -0.588 |
| CG40439 | 1 | 0.604 | 0.791 | 1.33 |
| CG40439 | 2 | 0.527 | -0.886 | 1.37 |
| CG4907 | 1 | 0.527 | 0.853 | 0.962 |
| CG7369 | 1 | 2.22 (active) | 0.943 | 2.54 |
| CheA29a (Chemosensory protein A 29a) | 1 | 0.0442 | 0.211 | -0.99 |
| Hmt4-20 (Histone methyltransferase 4-20) | 1 | -0.566 | 0.101 | 1.03 |
| Hmt4-20 (Histone methyltransferase 4-20) | 2 | 0.995 | 0.665 | -0.221 |
| CG33017 | 1 | -0.68 | -1.7 | -0.339 |
| CG33017 | 2 | -0.482 | -1.43 | -2.26 |
| CG9993 | 1 | -0.318 | 0.0468 | 1.19 |
| CG2336 | 1 | -1.54 | 0.607 | 0.776 |
| CG12290 | 1 | -1.07 | 0.867 | 0.522 |
| CG12290 | 2 | 0.929 | 0.44 | 0.647 |
| CG13949 | 1 | 0.817 | 1.5 | -0.315 |
| CG13949 | 2 | -0.195 | 0.242 | 0.712 |
| Fkbp59 (FK506-binding protein 59kD) | 1 | 1.63 | -0.119 | 0.271 |
| Fkbp59 (FK506-binding protein 59kD) | 2 | 0.476 | 0.776 | 0.453 |
| reb (rebuf) | 1 | -5.92 | 0.72 | 0.161 |
| CG31088 | 1 | 0.213 | -0.48 | 0.526 |
| CG31088 | 2 | 0.171 | -0.355 | 0.537 |
| CG33490 | 1 | 0.857 | 0.531 | 0.214 |
| Lcp3 (Larval cuticle protein 3) | 1 | -0.58 | -1.19 | 0.614 |
| Lcp3 (Larval cuticle protein 3) | 2 | 0.54 | 0.471 | 1.02 |
| Pak3 | 1 | 3.37 (active) | 1.5 | 3.52 |
| Pak3 | 2 | 0.849 (active) | 1.98 | 4.97 |
| babos | 1 | -0.828 | -0.752 | -0.771 |
| babos | 2 | -1.01 | 0.814 | -0.828 |
| GstD1 (Glutathione S transferase D1) | 1 | -3.05 (active) | -4.17 | -0.0271 |
| GstD1 (Glutathione S transferase D1) | 2 | -0.917 | -1.87 | -0.243 |
